Results of unrelated studies side by side (data: NIAID ChemDB).

Shared fields: growth or infection tests; species: HIV-1

ECn: concentration that inhibits the pathogen or its effect by n%.

compound	strain	method	cell line	endpoint	changes	value
O=C1c2c(O)c(=O)n([C@@H]3C[C@H]3c3ccccc3)c(=O)n2CCN1Cc1ccc(F)cc1		p24	MT-4	EC50		<10 µM
C=CCCN(C(=O)[C@H](Cc1cc(F)cc(F)c1)NC(=O)NS(=O)(=O)N[C@@H](Cc1cc(F)cc(F)c1)C(=O)N(CC=C)c1ccc(OC)cc1)c1ccc(OC)cc1	NL4-3	luciferase	MT-2	EC50		0.26 µM
O=C1Nc2ccc(Cl)cc2C(OCCC2CC2)(C(F)(F)F)O1				EC50	RT-K103N	<0.286 µM
COc1ccc(N(C)C(=O)[C@H](Cc2cc(F)cc(F)c2)NC(=O)Cn2c(=O)n(CC(=O)N[C@@H](Cc3cc(F)cc(F)c3)C(=O)N(C)c3ccc(OC)cc3)c3c(Cl)cccc32)cc1	NL4-3	luciferase	MT-2	EC50		0.03 µM
COc1ccc(-c2c(C(OC(C)C)C(=O)O)c(C)nc3ccc(Cl)cc23)cc1F		luciferase / reporter gene	C8166	EC50		<20 µM
Cc1ccc(/C=C/c2cc(Cl)c3cc(Cl)ccc3n2)cc1	UG070	luminescence	TZM-bl	EC50		119 µM
CNC(CC(=O)Nc1cccc2c(C(=O)C(=O)N3CCN(C(=O)c4ccccc4)C[C@H]3C)c[nH]c12)C(=O)O		luciferase / reporter gene	HeLa	EC50		<1 µM
CC(C)=CCOc1cc(NC(=S)c2ccoc2C)ccc1Cl	NL4-3	p24	CEM + CEM-SS	EC50	RT-Y188C	0.01 µM
O=[N+]([O-])c1ccccc1/C=C/c1cc(Cl)c2cc(Cl)ccc2n1	UG070	luminescence	TZM-bl	EC50		52.16 µM
N#Cc1cc(Cl)cc(Oc2cc(Cl)cc(OCC(=O)Nc3ccc4[nH]cnc4c3Cl)c2)c1		p24	MT-4	EC95		<20 µM
Nc1ncnc2c1ncn2[C@@H]1C=C(CO)[C@@H](O)[C@H]1O	A018 PRE-AZT	p24	PBMC	EC50		0.0178 µM
Cc1cc(S(N)(=O)=O)ccc1NC(=O)COc1ccc(Cl)cc1C(=O)c1cc(F)cc(C#N)c1	HXB2	β-galactosidase	HeLa + HELA CD4+	EC50	RT-V106I	<0.01 µM
C[C@@H]1CCO[C@H]2Cn3cc(C(=O)NCc4ccc(F)cc4F)c(=O)c(O)c3C(=O)N12		luciferase / luminescence	TZM-bl	EC50	L74M/V75I	0.0012 µM
COc1cc(/C=C/c2cc(Cl)c3cc(Cl)ccc3n2)cc(OC)c1OC	UG070	luminescence	TZM-bl	EC50		110 µM
Cc1cc2[nH]cnc2cc1NC(=O)COc1ccc(Cl)cc1C(=O)c1cc(F)cc(C(F)(F)F)c1	HXB2	β-galactosidase	HeLa + HELA CD4+	EC50	RT-K103N P225H	<0.01 µM
Nc1nc(NC2CC2)c2ncn([C@H]3C=C[C@@H](CO)C3)c2n1	Clinical isolate	recombinant virus assay	MT-2	EC50	T69ins/K70R/M184V/K219Q	1.232 µM
COCC(C)n1c(=O)c(O)c2n(c1=O)CCN(Cc1ccc(F)cc1)C2=O		p24	MT-4	EC95		<10 µM
C[C@H](Cn1cnc2c(N)ncnc21)OCP(=O)(O)O	Clinical isolate	recombinant virus assay	MT-2	EC50	A62V (mixture)/L74V/V75I (mixture)/K103N/Y115F/F116Y/Q151M	0.0052 µM
N#Cc1cc(Cl)cc(Oc2cc(Cl)cc(OCc3[nH]nc4ccccc34)c2)c1		p24	MT-4	EC95		<20 µM
O=C(N[C@@H](Cc1cc(F)cc(F)c1)c1ncccc1Br)NS(=O)(=O)N[C@@H](Cc1cc(F)cc(F)c1)c1ncccc1Br	NL4-3	luciferase	MT-2	EC50		7.27 µM
NS(=O)(=O)c1ccc(NC(=O)CNc2cccc(Oc3ccccc3)c2)c(Cl)c1		p24	MT-4	EC95		<20 µM
Cc1nc2ccc(Cl)cc2c(-c2cnc3ccccc3c2)c1C(OC(C)C)C(=O)O		luciferase / reporter gene	C8166	EC50		<20 µM
COc1ccc(N(C)C(=O)[C@H](Cc2ccccc2)Nc2ccnc(N[C@@H](Cc3ccccc3)C(=O)N(C)c3ccc(OC)cc3)n2)cc1	NL4-3	luciferase	MT-2	EC50		12.04 µM
CC(C)=CCOC(C(=O)O)c1c(C)nc2ccc(Br)cc2c1-c1ccc(Cl)cc1		luciferase / reporter gene	C8166	EC50		<20 µM
O=C(COc1ccc(Cl)cc1C(=O)c1ccco1)Nc1ccc2cn[nH]c2c1	HXB2	β-galactosidase	HeLa + HELA CD4+	EC50	RT-K103N	<0.01 µM
CCCC(C(=O)O)c1c(C)nc2ccc(Cl)cc2c1-c1ccc(CC)cc1		luciferase / reporter gene	C8166	EC50		<20 µM
O=C1Nc2ccc(F)c(F)c2C(C#Cc2cccs2)(C(F)(F)F)O1				EC50	RT-K103N	<0.2797 µM
CCOC(=O)CCCCCNC(=O)Nc1cccc2c(C(=O)C(=O)N3CCC(=C(C#N)c4ccccc4)CC3)c[nH]c12		luciferase / reporter gene	HeLa	EC50		<1 µM
CN(C(=O)[C@H](Cc1cc(F)cc(F)c1)NC(=O)NS(=O)(=O)N[C@@H](Cc1cc(F)cc(F)c1)C(=O)N(C)c1ccc(C2CC2)cc1)c1ccc(C2CC2)cc1	NL4-3	luciferase	MT-2	EC50		0.01 µM
Nc1nccc2c1ncn2[C@@H]1C=C(CO)[C@@H](O)[C@H]1O	18453 unpaired	p24	PBMC	EC50		0.0034 µM
Cc1cc(C#N)cc(C(=O)c2cc(Cl)ccc2OCC(=O)Nc2ccc(OCCCN3CC=CC3)cc2C)c1	Nevirapine-resistant (RT Y181C)	cytopathic effect / propidium iodide	MT-4	EC50	RT-Y181C	<0.01 µM
Cc1nc2ccc(Cl)cc2c(-c2cccnc2)c1C(OC(C)C)C(=O)O		luciferase / reporter gene	C8166	EC50		<20 µM
Clc1ccc2nc(/C=C/c3ccc(N4CCCCC4)cc3)cc(Cl)c2c1	UG070	luminescence	TZM-bl	EC50		94.44 µM
C=CCN(C(=O)[C@H](Cc1cc(F)cc(F)c1)NS(=O)(=O)c1ccccc1S(=O)(=O)N[C@@H](Cc1cc(F)cc(F)c1)C(=O)N(CC=C)c1ccc(OC)cc1)c1ccc(OC)cc1	NL4-3	luciferase	MT-2	EC50		1.74 µM
C[C@@H]1CN(C(=O)c2ccccc2)CCN1C(=O)C(=O)c1c[nH]c2c(NC(=O)NCCOCCOCCNC(=O)c3ccc(B(O)O)cc3)cccc12		luciferase / reporter gene	HeLa	EC50		<1 µM
N#Cc1cccc(Oc2cc(Cl)cc(OCC(=O)Nc3ccc(S(N)(=O)=O)cc3Cl)c2)c1		p24	MT-4	EC95		<20 µM
O=C1c2c(O)c(=O)n(CC3COCCN3)c(=O)n2CCN1Cc1ccc(F)cc1		p24	MT-4	EC50		<10 µM
N#Cc1cc(Cl)cc(Oc2cc(OCc3nc4ccccc4s3)ccc2Cl)c1		p24	MT-4	EC95		<20 µM
Cc1cc(S(N)(=O)=O)ccc1NC(=O)COc1ccc(Cl)cc1C(=O)c1cccc(C#N)n1	WTRVA	β-galactosidase	HeLa + HELA CD4+	EC50		<0.01 µM
COP(=O)(c1cc(C)cc(CCC#N)c1)c1c(C(N)=O)[nH]c2ccc(Cl)c(F)c12	BH10	cytopathic effect	MT-4	EC50	K103N	0.0003 µM
O=C1Nc2ccc(Cl)cc2C(C#Cc2ccccn2)(C(F)(F)F)O1				EC90	RT-K103N	0.064 µM
N#Cc1cc(Cl)cc(Oc2cc(OCc3[nH]nc4nc(N5CCC5)ccc34)ccc2Cl)c1		p24	MT-4	EC50		<20 µM
COc1ccc(N(C)C(=O)[C@H](Cc2ccccc2)NC(=O)c2cc(C)cc(C(=O)N[C@@H](Cc3ccccc3)C(=O)N(C)c3ccc(OC)cc3)c2)cc1	NL4-3	luciferase	MT-2	EC50		0.05 µM
CCc1cc(C#N)cc(C(=O)c2cc(Cl)ccc2OCC(=O)Nc2ccc(S(N)(=O)=O)cc2C)c1	HXB2	β-galactosidase	HeLa + HELA CD4+	EC50	RT-L100I	<0.01 µM
N#CC(=C1CCN(C(=O)C(=O)c2c[nH]c3c(NC(=O)NCCC(=O)O)cccc23)CC1)c1ccccc1		luciferase / reporter gene	HeLa	EC50		<1 µM
N#Cc1cc(Cl)cc(Oc2cc(OCc3[nH]nc4nc(N5CC(CN)C5)ccc34)ccc2Cl)c1		p24	MT-4	EC95		<20 µM
COc1ccc(N(C)C(=O)[C@H](Cc2ccccc2)NC(=O)c2nc[nH]c2C(=O)N[C@@H](Cc2ccccc2)C(=O)N(C)c2ccc(OC)cc2)cc1	NL4-3	luciferase	MT-2	EC50		3.34 µM
C/C=C/COC1(C(F)(F)F)OC(=O)Nc2ccc(F)cc21				EC50	RT-K103N	<1.148 µM
Cc1ccc(-c2nnc(COc3ccc(Cl)c(Oc4cc(Cl)cc(C#N)c4)c3)o2)cc1		p24	MT-4	EC50		<20 µM
Cc1cn([C@H]2C=C[C@@H](CO)O2)c(=O)[nH]c1=O	NL-XM WT	p24	MT-4	EC50		<0.3 µM
Cc1cc(S(N)(=O)=O)ccc1NC(=O)COc1ccc(Cl)cc1C(=O)c1cccc(C#N)c1	HXB2	β-galactosidase	HeLa + HELA CD4+	EC50	RT-G190A	<0.01 µM
CCCC(C(=O)O)c1c(C)nc2ccc(Cl)cc2c1-c1ccc(Cl)c(C)c1		luciferase / reporter gene	C8166	EC50		<20 µM
Cc1cc(C#N)cc(C(=O)c2cc(Cl)ccc2OCC(=O)Nc2cnc(S(N)(=O)=O)cc2C)c1	HXB2 (RT-K103N G190A) Recombinant	β-galactosidase	HeLa + HELA CD4+	EC50	RT-K103N G190A	<0.01 µM
Nc1nc(=O)n([C@H]2C=C[C@@H](CO)O2)cc1F	XM-Q151M	p24	MT-4	EC50	RT-A62V V75I F77C F116Y Q151M	<32 µM
CCc1ccc(-c2c([C@H](OC(C)(C)C)C(=O)O)c(C)nc3ccccc23)cc1		luciferase / reporter gene	C8166	EC50		<20 µM
CC(C)n1c(=O)c(O)c2n(c1=O)C(CCN1CCc3ccccc3C1)CN(Cc1ccc(F)cc1)C2=O		p24	MT-4	EC95		<10 µM
Cc1cc(C#N)cc(C(=O)c2cc(Cl)ccc2OCC(=O)Nc2ccc(S(N)(=O)=O)cc2C)c1	HXB2	β-galactosidase	HeLa + HELA CD4+	EC50	RT-P236L	<0.01 µM
CC(C)=CCOC1(C(F)(F)F)OC(=O)Nc2ccc(F)c(F)c21				EC50		<0.00154 µM

A second listing of 7 rows from above:

| compound | strain | method | cell line | endpoint | changes | value |
|---|---|---|---|---|---|---|
| COc1ccc(-c2c(C(OC(C)C)C(=O)O)c(C)nc3ccc(Cl)cc23)cc1F |  | luciferase / reporter gene | C8166 | EC50 |  | <20 µM |
| CN(C(=O)[C@H](Cc1cc(F)cc(F)c1)NC(=O)NS(=O)(=O)N[C@@H](Cc1cc(F)cc(F)c1)C(=O)N(C)c1ccc(C2CC2)cc1)c1ccc(C2CC2)cc1 | NL4-3 | luciferase | MT-2 | EC50 |  | 0.01 µM |
| CCCC(C(=O)O)c1c(C)nc2ccc(Cl)cc2c1-c1ccc(Cl)c(C)c1 |  | luciferase / reporter gene | C8166 | EC50 |  | <20 µM |
| Clc1ccc2nc(/C=C/c3ccc(N4CCCCC4)cc3)cc(Cl)c2c1 | UG070 | luminescence | TZM-bl | EC50 |  | 94.44 µM |
| N#Cc1cc(Cl)cc(Oc2cc(Cl)cc(OCc3[nH]nc4ccccc34)c2)c1 |  | p24 | MT-4 | EC95 |  | <20 µM |
| Cc1cc(S(N)(=O)=O)ccc1NC(=O)COc1ccc(Cl)cc1C(=O)c1cccc(C#N)n1 | WTRVA | β-galactosidase | HeLa + HELA CD4+ | EC50 |  | <0.01 µM |
| O=C1c2c(O)c(=O)n(CC3COCCN3)c(=O)n2CCN1Cc1ccc(F)cc1 |  | p24 | MT-4 | EC50 |  | <10 µM |

Blank or dashed fields: not listed here. Neighbouring rows are from separate reports.